Results of unrelated studies side by side (data: NIAID ChemDB).

Common to all: growth or infection tests; measure: MIC

Rows are shuffled and stem from different studies. An empty or dashed field is not shown.

SMILES	organism	strain or isolate	conditions	value
CO[C@H]1/C=C/O[C@@]2(C)Oc3c(C)c(O)c4c(O)c(c5c(c4c3C2=O)NC2(CCN(CC(C)C)CC2)N=5)=NC(=O)/C(C)=C\C=C\[C@H](C)[C@H](O)[C@@H](C)[C@@H](O)[C@@H](C)[C@H](OC(C)=O)[C@@H]1C	Mycobacterium avium intracellulare	109		0.125 µg/mL
CC[C@H]1OC(=O)[C@H](C)[C@@H](OC2C[C@@](C)(OC)[C@@H](O)[C@H](C)O2)[C@H](C)[C@@H](O[C@@H]2O[C@H](C)C[C@H](N(C)C)[C@H]2O)C(C)(O)C[C@@H](C)/C(=N\OCCCCc2ccccc2)[C@H](C)[C@@H](O)[C@]1(C)O	Mycobacterium avium complex	20096 (clarithromycin-resistant)		3.13 µg/mL
COc1ccc2oc(=O)n(-c3cccc(F)c3)c(=S)c2c1	Mycobacterium kansasii	6509/96	21 d	32 µM
CC(C)N=C(N)/N=C(\N)NOCCCOc1cc(Cl)c(Cl)cc1Cl	Mycobacterium avium complex	FAR		16 µg/mL
CCCCCCCCC(=O)O[C@H]1[C@H](C)[C@@H](O[C@@H]2O[C@H](C)C[C@H](N(C)C)[C@H]2O)C(C)(O)C[C@@H](C)/C(=N\OCCCOc2ccccc2)[C@H](C)[C@@H](O)[C@](C)(O)[C@@H](CC)OC(=O)[C@@H]1C	Mycobacterium avium complex	20039 (clarithromycin-susceptible)		6.25 µg/mL
CCCCCCCCCCC(CCCCCCCCCC)OC(=O)NC(CCC(=O)O)(CCC(=O)O)CCC(=O)O	Mycobacterium abscessus	AAy-P-1		18 µg/mL
COc1ccc2oc(=O)n(-c3cccc(Cl)c3)c(=S)c2c1	Mycobacterium kansasii	My 235/80	14 d	16 µM
CCCCCCCCCCCCCCCCCCCCCCCCCCCCCCOC(=O)NC(C)(CCC(=O)O)CCC(=O)O	Mycobacterium marinum	ATCC 927		105 µg/mL
CC[C@H]1OC(=O)[C@H](C)[C@@H](O[C@H]2C[C@@](C)(OC)[C@@H](O)[C@H](C)O2)[C@H](C)[C@@H](O[C@@H]2O[C@H](C)C[C@H](N(C)C)[C@H]2O)[C@](C)(O)C[C@@H](C)/C(=N\OC)[C@H](C)[C@@H](O)[C@]1(C)O	Mycobacterium avium complex	20039 (clarithromycin-susceptible)		3.13 µg/mL
CCCCCCCCCCCCCCCCCCCCCCCOC(=O)NC(CCC(=O)O)(CCC(=O)O)CCC(=O)O	Mycobacterium marinum	ATCC 927		216 µg/mL
Nc1ccc(S(=O)(=O)c2ccc(N)cc2)cc1	Mycobacterium avium complex	DW11		32 µg/mL
CCCCCCCCCCCCCCCCCCCCCCCC(=O)NC(CCC(=O)O)(CCC(=O)O)CCC(=O)O	Mycobacterium chelonae	EO-P-1		54 µg/mL
O=c1oc2ccc(Br)cc2c(=S)n1-c1ccccc1	Mycobacterium kansasii	6509/96	14 d	2 µM
CC[C@H]1OC(=O)[C@H](C)[C@@H](O[C@H]2C[C@@](C)(OC)[C@@H](OC(C)=O)[C@H](C)O2)[C@H](C)[C@@H](O[C@@H]2O[C@H](C)C[C@H](N(C)C)[C@H]2OC(=O)NNCc2cccc(OC)c2)C(C)(O)C[C@@H](C)/C(=N\OCCCC2CCCCC2)[C@H](C)[C@@H](O)[C@]1(C)O	Mycobacterium avium complex	20096 (clarithromycin-resistant)		0.78 µg/mL
CCCCCCCCCCCCCCCOC(=O)NC(CCC(=O)O)(CCC(=O)O)CCC(=O)O	Mycobacterium abscessus	AAy-P-1		144 µg/mL
CCCCCCCCNNC(=O)O[C@H]1[C@H](O[C@@H]2[C@@H](C)[C@H](O[C@H]3C[C@@](C)(OC)[C@@H](OC(C)=O)[C@H](C)O3)[C@@H](C)C(=O)O[C@H](CC)[C@@](C)(O)[C@H](O)[C@@H](C)/C(=N/OCCCC3CCCCC3)[C@H](C)CC2(C)O)O[C@H](C)C[C@@H]1N(C)C	Mycobacterium avium complex	20096 (clarithromycin-resistant)		6.25 µg/mL
CCCCCCCCCCCCCCCC(=O)NC(CCC(=O)O)(CCC(=O)O)CCC(=O)O	Mycobacterium abscessus	AAy-P-1		144 µg/mL
CC[C@H]1OC(=O)[C@H](C)[C@@H](O[C@H]2C[C@@](C)(OC)[C@@H](OC(C)=O)[C@H](C)O2)[C@H](C)[C@@H](O[C@@H]2O[C@H](C)C[C@H](N(C)C)[C@H]2OC(=O)NN(C)Cc2ccccc2)C(C)(O)C[C@@H](C)/C(=N\OCCCC2CCCCC2)[C@H](C)[C@@H](O)[C@]1(C)O	Mycobacterium avium complex	20096 (clarithromycin-resistant)		6.25 µg/mL
O=c1oc2ccc(Br)cc2c(=S)n1-c1ccc(Br)cc1	Mycobacterium kansasii	6509/96	21 d	4 µM
CCCCCCCCCCCCCCCCCCOC(=O)NC(C)(CCC(=O)O)CCC(=O)O	Mycobacterium marinum	ATCC 927		138 µg/mL
Cc1ccc2oc(=S)n(-c3ccccc3)c(=S)c2c1	Mycobacterium kansasii	6509/96	21 d	4 µM
CC[C@H]1OC(=O)[C@H](C)[C@@H](O[C@H]2C[C@@](C)(OC)[C@@H](OC(C)=O)[C@H](C)O2)[C@H](C)[C@@H](O[C@@H]2O[C@H](C)C[C@H](N(C)C)[C@H]2OC(=O)NNCc2ccccc2[N+](=O)[O-])C(C)(O)C[C@@H](C)/C(=N\OCCCC2CCCCC2)[C@H](C)[C@@H](O)[C@]1(C)O	Mycobacterium avium complex	20092 (clarithromycin-resistant)		0.39 µg/mL